The entries are a selection whose mix differs from that of the whole data set. Entries with a potency or affinity are not part of this list. Calls of active or inactive are those of the source. The rule behind the calls is not given here.
Assay: PhoP regulon inhibitors, Salmonella typhi PhoP promoter GFP reporter, confirmatory (AID 1850);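 note: 0% = induced wells with vehicle and 100% = uninduced wells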
Details: fluorescence, 4 h, at 50 µM, hits give high values

Row | SMILES | inhibition
1 | COc1cccc(C(=O)N(c2cc(C)cc(C)c2)C2CCN(C(=O)OC(C)(C)C)CC2)c1 | inactive: 7.01%
2 | COc1cc(OC)cc(C(=O)NCC2(N3CCOCC3)CCCCC2)c1 | inactive: 0.12%
3 | CCC(CO)(C(=O)OC1CN2CCC1CC2)c1ccccc1 (centres undefined) | inactive: 7%
4 | CN1CCC(Nc2ccc(Cl)cc2)CC1 | inactive: -2.38%
5 | CCCOc1ccc(C)cc1CN(CCCl)CCCl | inactive: 5.19%
6 | CN1CCC(Nc2ccc(F)c(Cl)c2)CC1 | inactive: -3.94%
7 | CCOc1ncccc1C(=O)NCC1(N2CCOCC2)CCCCC1 | inactive: 6.81%
8 | O=C(O)C1(Nc2ccccc2)CCN(Cc2ccccc2)CC1 | inactive: -0.89%
9 | CC(C)(C)OC(=O)N1CCC(Nc2ccccc2)CC1 | inactive: 3.5%
10 | CCCOc1ccc(C(=O)NCC2(N(C)C)CCCCC2)cc1 | inactive: 0.13%
11 | CCN1CCC(Nc2cccc(F)c2)CC1 | inactive: -3.98%
12 | CN(C)c1ccc(C(=O)NCC2(N3CCCCC3)CCCCC2)cc1 | inactive: 3.82%
13 | COc1cc(OC)cc(C(=O)NCC2(N3CCCCC3)CCCCC2)c1 | inactive: -5.54%
14 | Fc1ccccc1NC1CCN(Cc2ccccc2)CC1 | inactive: 1.56%
15 | Cc1ccc(C(=O)NCC2(N3CCCCC3)CCCCC2)o1 | inactive: 12.5%
16 | CN(C)C1(CNC(=O)c2cccc(C#N)c2)CCCCC1 | inactive: 11.2%
17 | CCCN1CCC(Nc2cc(OC)cc(OC)c2)CC1 | inactive: -1.14%
18 | c1ccc(CN2CCC(Nc3ccccc3)CC2)cc1 | inactive: -13.9%
19 | N#Cc1ccc(C(=O)NCC2(N3CCCCC3)CCCCC2)cc1 | inactive: -6.12%
20 | CC(C)(C)OC(=O)N1CCC(N(C(=O)c2ccccc2)c2ccc(Cl)cc2)CC1 | inactive: -0.77%

Row | SMILES | inhibition
21 | CCOC(=O)N1CCC(Nc2ccc(C)cc2)CC1 | inactive: -5.1%
22 | N/C(=N\O)c1c(N)no[n+]1[O-] | inactive: -12.3%
23 | CCc1cc(C(=O)NCC2(N3CCCCC3)CCCCC2)sc1C | inactive: -0.39%
24 | O=C(OC1CN2CCC1CC2)C1c2ccccc2C=Cc2ccccc21 (centres undefined) | inactive: -5.21%
25 | COc1ccc(C(=O)NCC2(N3CCOCC3)CCCCC2)cc1OC | inactive: 10.9%
26 | CN1CCC(Nc2cccc(F)c2)CC1 | inactive: 1.34%
27 | CCCOc1ccc(C(=O)NCC2(N(C)C)CCCCC2)cc1OC | inactive: 1.99%
28 | CC(C)c1ccc(NC2CCN(C(=O)OC(C)(C)C)CC2)cc1 | inactive: -2.54%
29 | CN(C)c1cccc(C(=O)NCC2(N3CCCCC3)CCCCC2)c1 | inactive: 8.54%
30 | COc1ccc(CN(CCCl)CCCl)cc1Cl | inactive: 5.77%
31 | COc1cc(OC)c(C(=O)NCC2(N(C)C)CCCCC2)cc1OC | inactive: -0.74%
32 | O=C(NCC1(N2CCCCC2)CCCCC1)c1cccc(C(F)(F)F)c1 | inactive: 10.7%
33 | O=C(NCC1(N2CCOCC2)CCCCC1)c1cc(=O)[nH]c2ccccc12 | inactive: -8.92%
34 | COc1cc(C(=O)NCC2(N3CCCCC3)CCCCC2)ccc1OC(F)F | inactive: 9.88%
35 | COc1ccc(NC2CCN(C(=O)OC(C)(C)C)CC2)cc1 | inactive: -8.69%
36 | CN1CCN(CCOC(=O)C(O)(c2ccccc2)c2ccccc2)CC1 | inactive: 0.58%
37 | O=C(NCC1(N2CCCCC2)CCCCC1)c1ccc(OC(F)F)cc1 | inactive: -0.26%
38 | N#CC1(Nc2ccccc2)CCN(CCc2ccccc2)CC1 | inactive: -0.91%
39 | CCN1CCC(Nc2ccc(Cl)cc2)CC1 | inactive: 3.89%
40 | O=C(NCC1(N2CCCCC2)CCCCC1)c1cccc([N+](=O)[O-])c1 | inactive: -0.79%

Row | SMILES | inhibition
41 | Cc1ccc(OCC(C)C)c(CN(CCCl)CCCl)c1 | inactive: 11.5%
42 | CCOC(=O)N1CCC(Nc2cccc(C)c2)CC1 | inactive: 5.24%
43 | COc1cc(C(=O)NCC2(N(C)C)CCCCC2)ccc1OC(F)F | inactive: 6.17%
44 | CCOc1ccc(C)cc1CN(CCCl)CCCl | inactive: 4.34%
45 | CCOC(=O)N1CCC(Nc2ccc(F)cc2)CC1 | inactive: -1.47%
46 | COc1ccc(NC2CCN(CCc3ccccc3)CC2)c(OC)c1 | inactive: 2.38%
47 | O=C(NCC1(N2CCCCC2)CCCCC1)c1ccc(F)cc1 | inactive: 9.47%
48 | Cc1cc(C)cc(N(C(=O)c2ccccc2)C2CCN(C(=O)OC(C)(C)C)CC2)c1 | inactive: 0.11%
49 | O=C(NCC1(N2CCCCC2)CCCCC1)c1ccc(Cl)nc1 | inactive: 6.16%
50 | O=C(NCC1(N2CCOCC2)CCCCC1)c1cc2ccccc2o1 | inactive: -5.75%
51 | N#CC1(Nc2ccccc2)CCN(Cc2ccccc2)CC1 | inactive: -20.4%
52 | O=C(OC1CN2CCC1CC2)C1c2ccccc2Oc2ccccc21 (centres undefined) | inactive: -2.01%
53 | CCOC(=O)N1CCC(Nc2ccc(OC)cc2)CC1 | inactive: -9.62%
54 | COc1ccc(C(=O)NCC2(N3CCCCC3)CCCCC2)c(OC)c1OC | inactive: 3.33%
55 | CC(C)(C)OC(=O)N1CCC(N(C(=O)c2ccccc2)c2ccc(F)cc2)CC1 | inactive: -0.29%
56 | COc1ccc(C(=O)NCC2(N3CCCCC3)CCCCC2)cc1 | inactive: 11.2%
57 | O=C(NCC1(N2CCCCC2)CCCCC1)c1cccs1 | inactive: 2.05%
58 | O=C(NCC1(N2CCCCC2)CCCCC1)c1ccc(=O)[nH]c1 | inactive: -8.45%
59 | CSc1ccccc1C(=O)NCC1(N2CCCCC2)CCCCC1 | inactive: -2.26%

Reference: PubChem BioAssay AID1850 (Southern Research Specialized Biocontainment Screening …, 2009)
